Results of unrelated studies side by side (data: NIAID ChemDB).

Shared fields: growth or infection tests; organism: Aspergillus fumigatus

Blank or dashed fields: not listed here.

smiles,measure,strain,read by,value
CCC(C)n1ncn(-c2ccc(N3CCN(c4ccc(OC[C@H]5CO[C@](Cn6cncn6)(c6ccc(Cl)cc6Cl)O5)cc4)CC3)cc2)c1=O,MIC100,MRCM 32221,broth dilution / visual reading,1 µg/mL
CCCCCOc1ccc(-c2ccc(-c3ccc(C(=O)N[C@H]4C[C@@H](O)[C@@H](O)NC(=O)[C@@H]5[C@@H](O)[C@@H](C)CN5C(=O)[C@H]([C@H](C)O)NC(=O)[C@H]([C@H](O)[C@@H](O)c5ccc(O)cc5)NC(=O)[C@@H]5C[C@@H](O)CN5C(=O)[C@H]([C@H](C)O)NC4=O)cc3)cc2)cc1,MFC,94-46,-,>50 µg/mL
CC(C)(C)c1ccc(/C=C2\SC(=O)N(CC(O)(Cn3nccn3)c3ccc(F)cc3F)C2=O)cc1,MIC80,-,-,>100 µg/mL
CC(C)CC1NC(=O)CC(CCCCCCCCC(C)O)OC(=O)C(CC(C)C)NC(=O)C(CC(C)C)NC(=O)C(CC(C)C)NC(=O)C(C(C)C)NC(=O)C(CC(=O)O)NC(=O)C(CC(C)C)NC1=O,MFC,Clinical isolate,visual reading,8 µg/mL
C[C@@H](n1ccn(-c2ccc(OC(F)(F)F)cc2)c1=O)C(O)(Cn1cncn1)c1ccc(F)cc1F,MIC,TIMM1728,-,2 µg/mL
C[C@@H](c1ncncc1F)[C@](O)(Cn1cncn1)c1ccc(F)cc1F,MIC90,3 clinical isolates,-,1 µg/mL
CC[C@@H]([C@H](C)O)n1ncn(-c2ccc(N3CCN(c4ccc(OC[C@@H]5CO[C@@](Cn6cncn6)(c6ccc(F)cc6F)C5)cc4)CC3)cc2)c1=O,MIC90,256 isolates,-,0.5 µg/mL
COC(=O)Cc1csc(NC(=O)Cc2ccc(C)cc2)n1,MIC,NCIM 902,-,12.5 µg/mL
O=C1S/C(=C\c2ccc(Br)cc2)C(=O)N1CC(O)(Cn1nccn1)c1ccc(F)cc1F,MIC80,-,-,>100 µg/mL
CC(N1CCN(c2ccc(-n3cnnn3)cc2)C1=O)[C@@](O)(Cn1cncn1)c1ccc(F)cc1F,MIC,TIMM1728,-,>64 µg/mL
COc1cc(O)c2c(c1)C(=O)c1c(cc3c(c1O)-c1c(cc(C)c(C(=O)NCC(=O)O)c1O)[C@H](O[C@@H]1O[C@H](C)[C@H](N)[C@H](O[C@@H]4OC[C@@H](O)[C@H](O)[C@H]4O)[C@H]1O)[C@H]3O)C2=O,MIC,IAM2034,-,6.3 µg/mL
C[C@@H](n1ccn(-c2ccc(OCC(F)(F)C(F)F)cc2)c1=O)C(O)(Cn1cncn1)c1ccccc1F,MIC,437,-,2 µg/mL
C[C@@H](c1ncncc1F)[C@](O)(Cn1cncn1)c1ccc(F)cc1F,Geometric mean MIC,62 isolates,-,0.334 µg/mL
C[C@@H](n1ccn(-c2ccc(OCC(F)(F)C(F)F)cc2)c1=O)C(O)(Cn1cncn1)c1ccc(F)cc1F,MIC,437,-,2 µg/mL
CCC(C)n1ncn(-c2ccc(N3CCN(c4ccc(OC[C@H]5CO[C@](Cn6cncn6)(c6ccc(Cl)cc6Cl)O5)cc4)CC3)cc2)c1=O,Geometric mean MIC,62 isolates,-,0.676 µg/mL
O=C1S/C(=C\c2ccccc2Br)C(=O)N1CC(O)(Cn1nccn1)c1ccc(F)cc1F,MIC80,-,-,>100 µg/mL
C[C@@H](c1ncncc1F)[C@](O)(Cn1cncn1)c1ccc(F)cc1F,MFC90,94 isolates,-,2 µg/mL
COC(=O)Cc1csc(NC(=O)Cc2cccc(OC)c2)n1,MIC,NCIM 902,-,6.25 µg/mL
CC(C)C[C@H](N)C(=O)O,MFC100,MRCM 24290,broth dilution,>18000 µg/mL
C[C@@H](N1CCN(c2ccc(OCC(F)(F)C(F)F)cc2)C1=O)C(O)(Cn1cncn1)c1ccccc1F,MIC,TIMM1728,-,0.5 µg/mL
C[C@H]1[C@H](O)[C@@H](C)/C=C/C=C/C=C/C=C/C=C/C=C/C=C/[C@H](O[C@@H]2O[C@H](C)[C@@H](O)[C@H](N)[C@@H]2O)C[C@@H]2O[C@](O)(C[C@@H](O)C[C@@H](O)CC[C@H](O)[C@@H](O)C[C@@H](O)CC(=O)O[C@H]1C)C[C@H](O)[C@H]2C(=O)O,MIC90,150 clinical isolates,-,1 µg/mL
C[C@H]1[C@H](O)[C@@H](C)/C=C/C=C/C=C/C=C/C=C/C=C/C=C/[C@H](O[C@@H]2O[C@H](C)[C@@H](O)[C@H](N)[C@@H]2O)C[C@@H]2O[C@](O)(C[C@@H](O)C[C@@H](O)CC[C@H](O)[C@@H](O)C[C@@H](O)CC(=O)O[C@H]1C)C[C@H](O)[C@H]2C(=O)O,MIC50,256 isolates,-,1 µg/mL
Cc1csc(NC(=O)COc2ccc(C)c(C)c2)n1,MIC,NCIM 902,-,12.5 µg/mL
C[C@@H](N1CCN(c2ccc(F)cc2)C1=O)C(O)(Cn1cncn1)c1ccc(F)cc1F,MIC,IFO6344,-,8 µg/mL
Cc1ccccc1/C=C1\SC(=O)N(CC(O)(Cn2nccn2)c2ccc(F)cc2F)C1=O,MIC80,-,-,>100 µg/mL
CCC(C)CC(C)CCCCCCCCC(=O)N[C@H]1C[C@@H](O)[C@H](NCCN)NC(=O)[C@@H]2[C@@H](O)CCN2C(=O)[C@H]([C@H](O)CCN)NC(=O)[C@H]([C@H](O)[C@@H](O)c2ccc(O)cc2)NC(=O)[C@@H]2C[C@@H](O)CN2C(=O)[C@H]([C@@H](C)O)NC1=O,MIC90,28 isolates,-,0.25 µg/mL
C[C@@H](c1nc(-c2ccc(C#N)cc2)cs1)[C@](O)(Cn1cncn1)c1ccc(F)cc1F,MIC50,256 isolates,-,0.25 µg/mL
CN(CCOc1ccc(CC2SC(=O)N(CC(O)(Cn3nccn3)c3ccc(F)cc3F)C2=O)cc1)c1ccccn1,MIC80,-,-,>100 µg/mL
Cc1ccc(C(C)C)cc1,MIC,CECT2071,-,>20 µg/mL
Cc1ccc(CC(=O)Nc2nc(-c3cccc(Cl)c3)cs2)cc1,MIC,NCIM 902,-,12.5 µg/mL
C[C@@H]1[C@H](O)[C@@H](C)/C=C/C=C/C=C/C=C/C=C/C=C/C=C/[C@H](O[C@@H]2O[C@H](C)[C@@H](O)[C@H](N)[C@@H]2O)C[C@@H]2O[C@](O)(C[C@@H](O)C[C@@H](O)[C@H](O)CC[C@@H](O)C[C@@H](O)CC(=O)O[C@H]1C)C[C@H](O)[C@H]2C(=O)O,MIC80,CB 11326,broth dilution,8 µg/mL
C[C@@H](N1CCN(c2ccc(-n3cnnn3)cc2)C1=O)[C@](O)(Cn1cncn1)c1ccc(F)cc1F,MIC,437,-,>64 µg/mL
O=C1CSC(=O)N1CC(O)(Cn1nccn1)c1ccc(F)cc1F,MIC80,-,-,>100 µg/mL
C[C@@H](N1CCN(c2ccc(OC(F)(F)C(F)F)cc2)C1=O)C(O)(Cn1cncn1)c1ccc(F)cc1F,MIC,TIMM1728,-,0.25 µg/mL
COC(=O)[C@H]1[C@@H]2C[C@@H](O[C@@H]3O[C@H](C)[C@@H](O)[C@H](N)[C@@H]3O)/C=C/C=C/C=C/C=C/C=C/C=C/C=C/[C@H](C)[C@@H](O)[C@H](C)[C@H](C)OC(=O)C[C@H](O)C[C@H](O)[C@@H](O)CC[C@H](O)C[C@H](O)C[C@](O)(C[C@@H]1O)O2,Geometric mean MIC,35 isolates,-,0.87 µg/mL

A number after MIC or MFC names an inhibition level or a share of isolates. Neighbouring rows are from separate reports.